From publication PMC7327168
Construct, isoform or probe ends are uncertain for at least one entry.

Protein sequences, listed by entry. Tags and fused reporters are not part of them.
UniProt P45684, whole entry: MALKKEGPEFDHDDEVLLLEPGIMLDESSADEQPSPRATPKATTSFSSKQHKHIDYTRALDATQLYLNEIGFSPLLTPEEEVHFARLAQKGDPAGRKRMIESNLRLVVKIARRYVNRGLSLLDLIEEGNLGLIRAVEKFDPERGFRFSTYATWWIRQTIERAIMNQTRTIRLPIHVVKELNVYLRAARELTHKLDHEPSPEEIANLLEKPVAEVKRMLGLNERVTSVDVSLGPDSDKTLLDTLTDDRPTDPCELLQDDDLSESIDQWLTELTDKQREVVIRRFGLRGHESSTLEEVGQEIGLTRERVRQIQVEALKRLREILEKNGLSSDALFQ

Target: RpoS (UniProt P45684)
Assay: EMSA
Conditions: 100 ng DNA, 30 min; RNA EMSA: 10 mM Tris-HCl pH 7.5, 5 mM MgCl2, 50 mM KCl, 10% glycerol, 1 U RNase inhibitor, on ice 30 min, 8% native PAGE 0.5x TBE; recombinant protein; protein details: 6xHis; probe letters rebuilt from the primers and the genome

GCCTGCGAGCGGTAGTCTGATCGGCCGTTTTGCCTCAAACGGAAGTTTGAATAAAGGGATTGATATAGCCGGTCAATTGGGCCAGCCTGTCCTGGCTGCGTCTGGTGGGACCGTTGTATACGCCGGTAGTGGTTTGCGGGGCTACGGCGAGTTGGTCATCATCAAACACAACGAGACCTACGTGAGTGCCTACGGTCACAACCGCAGGCTGCTGGTGCGGGAAGGGCAACAGGTCAAGGTAGGGCAATCGATTGCCGAGATGGGCTCCACAGGAACCGATCGGGTGAAGCTGCACTTCGAGATTCGCCGCCAGGGTAAGCCTGTCGATCCACTGCAATATTTGCCACGTCGCTGACCGGGAGTTCGCCCGCCCACATCATGTAGGTGAGCGGGTCCGGGCGTGTCCAGCGGGAAAGGAATCGCCCGGGCTTGAGTCGAACTCATGCAAGGGATAACGACATGGCACTCAAAAAAGAAGGGCCGGAGTTTGACCACGATGATGAAGTGCTCCTCCTGGAGCCCGGCATCATGCTGGACGAGT (double strand) [Pro-rpoS (rpoS promoter fragment)]
binding result: binds
